Experimental data as given in paper PMC10375895, “Repurposed Fenoprofen Targeting SaeR Attenuates Staphylococcus aureus Virulence in Implant-Associated Infections” (ACS Central Science, 2023).
The exact form of at least one protein or probe is not confirmed. At least one verdict rests on a figure or table, not on a statement of the authors.

Chains of the proteins cited; added tags and fusions are not shown. Lines headed by an entry give the natural chain unless they say otherwise; changes in a name come on top.
UniProt Q7A1J1: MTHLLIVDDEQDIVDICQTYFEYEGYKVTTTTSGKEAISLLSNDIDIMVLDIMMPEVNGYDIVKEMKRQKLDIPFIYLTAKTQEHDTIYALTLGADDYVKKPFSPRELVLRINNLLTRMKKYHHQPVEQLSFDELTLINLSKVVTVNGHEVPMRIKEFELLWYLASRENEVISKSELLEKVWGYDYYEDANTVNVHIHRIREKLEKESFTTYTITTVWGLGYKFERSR

Target: SaeR, phosphorylated (6His-SaeR) (UniProt Q7A1J1)
Test: EMSA
Conditions: recombinant protein, protein details: 6His (pET28a, BamHI/XhoI), label: biotin (EMSA Probe Biotin Labeling Kit), probe letters rebuilt from the primers and the genome

Measured: binding result

GCATTTCAATTTCGAGGGTTAGTCAAAGTTGAATAAATTCTTTATGAAACAAGGAAAAGACATAGCTAATTCTATTGATTAATTTCTTTAAAACTAATGATTTGTTTGATTTAAAAATGTAATCGATTGCAATATAAAAATACAAATATCTTAGAATTAAATCAATTAATTAACTATTAAATAAAAATTAACTATATATTAACTACTGTAAATTAATAAATAGAAATAGAGAAAAAGGGTATTAATTATGTTTGGAATTTCGTCGGGAATAAATTTTGCCATTACATAGAAATATCTAATA (double strand) [hla promoter fragment (biotin)]
binds: SaeR phosphorylated in mixture with SaeSC and ATP | ibuprofen (no effect on shift) | no drug
